# Measured values taken from PMC3237003 (Toxins, 2011).
# B1: sdAb N5 (VHH)
# VHH: EVQLEESGGGLVQPGGSLRVSCAASGFAFSGYAMGWFRQAPGKEREFVAGISRTDNYRPYADSVKGRFAISRDNAQNMVYLQMNSLKPEDTAVYYCAADRLGVPTPNSADYQYWGQGTQVIVSS
# notes: source: E. coli Rosetta, soluble sdAb expression vector
# B2: sdAb Abr1 (VHH)
# VHH: EVQLQASGGGLVQAGGSLRLSCAASGSDGSLEIMGWYRQAPGKQRELVARATSGGLKNYADSVKGRFTISGDLDKNTVYLQMNSLQPEDTGVYVCHLGVVASTYRDYWGQGTQVTVSS
# notes: as for B1
# B3: sdAb Abr2 (VHH)
# VHH: DVQLQASGGGLVQAGGSLVLSCTASGRSVSSLAMGWLRQVPGKERELVGSISLSGGRTYYADSMKGRFTISKDNAKNTVALQMNSLRPEDTAVYYCAARDAARDYAPLNFDTWGQGTQVTVSS
# notes: as for B1
# B4: sdAb Abr5 (VHH)
# VHH: EVQLQASGGGLVQAGGSLRLSCVVSGLSVGLNPVAWYRQAPGQQRDWVARMSMRGLTDYPDSLKGRAIISRDNAKNTVSLQMDSLKPEDTAVYFCKVGLSYWGQGTQVTVSS
# notes: as for B1
# B5: sdAb Abr11 (VHH)
# VHH: DVQLQASGGGLVRAGGSLRLSCAVSGLTVSHAPSAWYRQAPGKQRDWVARLSMRGLTDYEDSVKGRFTISRDNAKNTVYLQMDSLKPEDTAVYFCKAGLNYWGQGIQVTVSS
# notes: as for B1
# B6: sdAb Abr4 (VHH)
# VHH: EVQLVESGGGLVQAGRSLILSCSASGGIFTNMGMGWYRQAPGKQREVVAQITNRGRTNYGESVKGRFTISRDNAQRTAYLQMNSLKPEDTAVYYCRTNYGGRDYWGQGTQVTVSS
# notes: as for B1
# B7: sdAb Abr6 (VHH)
# VHH: EVQLQASGGGLVQAGGSLRLSCVVSGTTISISAVGWYRQAPGKERDMVARISSGGSNTDYVANVQGRFTVSRDNAKNTAYLQMNNLKPEDTAVYYCHVRPATWGQSRGYWGQGTQVTVSS
# notes: as for B1
# B8: sdAb N12 (VHH)
# VHH: EVQLQASGGGMVQGGGSLRLSCAASAHTFSDYAMGWFRQAPGKERSLVAAINRSGGRTWYTDSVRGRFTISRDNAKNTVYLQMDKLKPEDTAVYYCAAKSTHRDYAALNDYNYWGQGTQVTVSS
# notes: as for B1
# Target: ricin (Ricinus communis, UniProt P02879)
# Assay: Luminex direct binding (microsphere fluorescence immunoassay)
row,Binder,binding result
1,B1,binds
2,B2,no binding
3,B3,no binding
4,B4,no binding

# Target: Ricinus communis Agglutinin (RCA120) (Ricinus communis, UniProt P06750)
# Assay: as above
row,Binder,binding result
1,B2,no binding
2,B3,no binding
3,B4,no binding

# Target: ricin B chain (Ricinus communis, UniProt P02879)
# Assay: as above
row,Binder,binding result
1,B5,binds
2,B2,no binding
3,B6,binds
4,B3,no binding
5,B4,no binding
6,B7,binds

# Target: ricin A chain (Ricinus communis, UniProt P02879)
# Assay: as above
row,Binder,binding result
1,B2,no binding
2,B3,no binding
3,B4,no binding

# Target: Abrus agglutinin (Abrus precatorius, UniProt Q9M6E9)
# Assay: SPR
Binder,Kd,koff,kon,binding result
B1,0.29 nM,5.3e-05 s⁻¹,180000 M⁻¹ s⁻¹,
B2,,,,no binding (tested: up to 30 nM)
B6,0.95 nM,0.00049 s⁻¹,510000 M⁻¹ s⁻¹,
B3,0.014 nM,1.6e-05 s⁻¹,1.1e+06 M⁻¹ s⁻¹,
B8,0.0026 nM,4.2e-06 s⁻¹,1.6e+06 M⁻¹ s⁻¹,
B7,0.29 nM,2.6e-05 s⁻¹,91000 M⁻¹ s⁻¹,
